Test results as given in patent US4772547 (dated 1988).

Test: general procedure: Boc solid-phase peptide synthesis; benzhydrylamine (BHA) resin; symmetric anhydride procedure
Settings: whole synthesis

**Q.** Which results are given for HTLV-III env (487-511)-Cys-NH2?
**A.** crude mass: 435 mg; isolated mass: 31.1 mg

**Q.** Which results are given for HTLV-III env Cys-(500-511)-NH2?
**A.** crude mass: 741 mg; isolated mass: 46.1 mg
